Measurements reported in US20250313900A1, “COMPOSITIONS AND THERAPEUTIC AGENTS FOR MODULATING INFLAMMATORY RESPONSES ON BOTH TUMOR AND IMMUNE CELLS” (THE METHODIST HOSPITAL, priority 2022, published 2025).

Protein sequences, listed by entry. Tags and fused reporters are not part of them. Lines headed by an entry give the natural chain unless they say otherwise; changes in a name come on top.
UniProt Q8CJ61: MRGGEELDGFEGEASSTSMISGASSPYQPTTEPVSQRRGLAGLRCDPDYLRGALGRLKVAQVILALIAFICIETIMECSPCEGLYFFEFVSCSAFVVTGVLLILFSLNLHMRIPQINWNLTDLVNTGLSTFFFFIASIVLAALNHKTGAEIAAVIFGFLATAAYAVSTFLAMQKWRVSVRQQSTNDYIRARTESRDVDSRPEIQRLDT

Tests used:
IL-6 = IL-6 production (compound screening); type: cell-based
[1] = system: NF-kB promoter activity in LLC cells; assay: NF-kB promoter activity, CMTM4-expressing NF-kB/SEAP reporter stable LLC cells; type: cell-based, murine
[2] = system: NF-kB promoter activity in 4T1 cells; assay: NF-kB promoter activity, CMTM4-expressing NF-kB/SEAP reporter stable 4T1 cells; type: cell-based, murine; conditions: 4T1 reporter cells
glycolysis = assay: Test glycolysis (compound screening); type: cell-based
p-Akt/p-mTOR = p-Akt/p-mTOR (compound screening); type: cell-based
CMTM4 = CMTM4 (Mus musculus, UniProt Q8CJ61); assay: CMTM4 level (compound screening); type: cell-based
MHC II = MHC II assay by high-throughput flow cytometry (compound screening); type: cell-based
G-CSF = assay: Inhibition of EGF-mediated G-CSF secretion from tumor cells; type: cell-based

| Substance | IL-6 (%) (IL-6) | NF-kB (%)-LLC [1] | NF-kB (%)-4T1 [2] | Glycolysis (glycolysis) | p-Akt/p-mTOR (p-Akt/p-mTOR) | CMTM4 (CMTM4) | MHC II (%) (MHC II) | G-CSF (%) (G-CSF) |
| --- | --- | --- | --- | --- | --- | --- | --- | --- |
| 5-Methoxysterigmatocysin | −11.581% | 35.23% | 38.64% | Inhibit | Decrease | No difference |  |  |
| Verrucarin A 9,10-epoxide | −10.1997% | 36.11% | 41.32% | Inhibit | Decrease | No difference | 280.2% | −0.01129% |
